# RC index of single-base changes in HIV-1 RT

Protein: RT of HIV-1 NL4-3, numbered from its first residue.
Effects on overlapping genes or RNA elements are not listed.

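Seven fragments of pNL4-3 were mutated by error-prone PCR, and each virus pool was passaged in CEM T cells. The RC index is the frequency of a change after passage round 2 divided by its frequency in the plasmid library.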

A higher RC index is a better tolerated change; approximate classes are lethal up to 0.1, attenuated to 0.2, tolerated above. Substitutions are written as wild-type residue, site number, new residue. Input reads are the counts in the plasmid library. Since each clone held several changes (about five per kb), neutral changes can read low. Nucleotide positions follow pNL4-3. The authors read an index above 1 as above wild type (1.9% of all changes in the genome).

| mutation | base | input reads | RC |
|---|---|---|---|
| P55S | C2712T | 261 | 0.325 |
| E492V | A4024T | 129 | 0.0295 |
| D511Y | G4080T | 322 | 0.0916 |
| L210V | T3177G | 126 | 0.0597 |
| L187W | T3109G | 176 | 0.0427 |
| K249Q | A3294C | 73 | 0.0194 |
| G152E | G3004A | 109 | 0.902 |
| Y441C | A3871G | 171 | 0.0213 |
| Q509R | A4075G | 223 | 0.0682 |
| R356S | A3617T | 215 | 0.0451 |
| Y188F | A3112T | 157 | 0.108 |
| A445G | C3883G | 52 | 0.0702 |
| R307K | G3469A | 88 | 0.216 |
| Y457F | A3919T | 188 | 0.0388 |
| A158V | C3022T | 341 | 0.177 |
| S513C | A4086T | 291 | 0.0225 |
| P9A | C2574G | 165 | 0.0891 |
| D192Y | G3123T | 149 | 0.353 |
| A114S | G2889T | 62 | 0.0504 |
| N54Y | A2709T | 534 | 0.0144 |
| C162F | G3034T | 47 | 0.294 |
| G51E | G2701A | 676 | 0.0770 |
| L187V | T3108G | 54 | 0.139 |
| V90A | T2818C | 204 | 0.134 |
| G490R | G4017A | 203 | 0.300 |
| P9T | C2574A | 40 | 0.490 |
| A408G | C3772G | 48 | 0.111 |
| A288E | C3412A | 49 | 0.194 |
| I522V | A4113G | 271 | 0.968 |
| I5N | T2563A | 718 | 0.0409 |
| W406R | T3765C | 330 | 0.0402 |
| K347I | A3589T | 252 | 0.0538 |
| D192V | A3124T | 383 | 0.0343 |
| W414C | G3791T | 254 | 0.0216 |
| V559L | G4224C | 182 | 0.0743 |
| I482N | T3994A | 140 | 0.0543 |
| V276L | G3375T | 188 | 0.0319 |
| E297K | G3438A | 85 | 0.504 |
| E378D | A3683T | 344 | 0.0463 |
| K219N | A3206T | 292 | 0.0386 |
| L34S | T2650C | 236 | 0.0542 |
| K43E | A2676G | 533 | 0.0280 |
| P14L | C2590T | 344 | 0.0991 |
| W229C | G3236T | 243 | 0.0851 |
| V35A | T2653C | 173 | 0.0986 |
| I270F | A3357T | 604 | 0.0149 |
| K323T | A3517C | 43 | 0.0451 |
| Q334L | A3550T | 230 | 0.0253 |
| L422S | T3814C | 140 | 0.0521 |
| I435L | A3852T | 239 | 0.0382 |
| Q174H | A3071T | 424 | 0.0203 |
| H235P | A3253C | 58 | 0.0244 |
| Q475H | G3974T | 184 | 0.0620 |
| M164I | G3041T | 104 | 0.415 |
| K66N | A2747T | 328 | 0.0260 |
| C162G | T3033G | 219 | 0.0394 |
| A272S | G3363T | 189 | 0.0556 |
| S499P | T4044C | 209 | 0.100 |
| A538S | G4161T | 303 | 0.0541 |
| L349M | C3594A | 155 | 0.162 |
| K201T | A3151C | 213 | 0.0529 |
| Q258L | A3322T | 231 | 0.0184 |
| L469Q | T3955A | 225 | 0.0253 |
| I326K | T3526A | 143 | 0.0271 |
| L295Q | T3433A | 376 | 0.0127 |
| I274T | T3370C | 323 | 0.0279 |
| L26F | G2627T | 170 | 0.226 |
| K465R | A3943G | 262 | 0.0725 |
| R172I | G3064T | 83 | 0.249 |
| E298D | A3443C | 47 | 0.0675 |
| E89G | A2815G | 213 | 0.0560 |
| Y342N | T3573A | 156 | 0.0745 |
| E6D | G2567T | 299 | 0.205 |
| Q487H | G4010T | 252 | 0.0905 |
| Y501F | A4051T | 175 | 0.0326 |
| P4T | C2559A | 171 | 0.315 |
| P468S | C3951T | 198 | 0.0672 |
| D123Y | G2916T | 210 | 0.0496 |
| Y532C | A4144G | 259 | 0.0759 |
| I521R | T4111G | 39 | 0.0420 |
| K65R | A2743G | 263 | 0.0583 |
| Y144N | T2979A | 305 | 0.0452 |
| K154N | A3011T | 448 | 0.0577 |

A selection of 6 entries from above:

mutation	base	input reads	RC
P9T	C2574A	40	0.490
K43E	A2676G	533	0.0280
V559L	G4224C	182	0.0743
E297K	G3438A	85	0.504
Y441C	A3871G	171	0.0213
Y457F	A3919T	188	0.0388

The measurements come from Al-Mawsawi et al. 2014 (doi:10.1186/s12977-014-0124-6).